Test results taken from US20230293630A1, “Coronavirus T Cell Epitopes and Uses Thereof” (priority 2020, published 2023).
Values joined by “and” are separate entries in the source; they are usually repeats but may differ in a detail not shown here. Equal values may be shown once.

Assays:
[1] = tested on: SARS-CoV-2-specific CD4+ T cells (OX40+CD137+) in PBMC; assay type: cell-based, human; for Magnitude by # of responding donors: unit not given here; for Sum of response: unit not given here
[2] = tested on: SARS-CoV-2-specific CD8+ T cells (CD69+CD137+) in PBMC; assay type: cell-based, human; for Magnitude of response: unit not given here; for Sum of response: unit not given here

Row | Sequence | Frequency of response (%) [1] | Magnitude by # of responding donors [1] | Sum of response [1] | Frequency of positive response [2] | Magnitude of response [2] | Sum of response [2]
1 | YAWNRKRISNCVADY | 8% | 582 | 582 | – | – | –
2 | ALLAGTITSGWTFGA | 9% | 116 | 116 | – | – | –
3 | KRISNCVADYSVLYN | 17% | 164 | 327 | – | – | –
4 | SVTTEILPVSMTKTS | 8% | 341 | 341 | – | – | –
5 | KAYNVTQAFGRRGPE | 15% | 265 | 530 | – | – | –
6 | FLFLTWICLLQFAYA | 7% | 255 | 255 | – | – | –
7 | WICLLQFAYANRNRF | 7% | 234 | 234 | – | – | –
8 | HIDAYKTFPPTEPKK | 7% | 223 | 223 | – | – | –
9 | IPIQASLPF | – | – | – | 50 and 67 | 491 and 809 | –
10 | KEIDRLNEV | – | – | – | 20 | – | –
11 | TPINLVRDL | – | – | – | 20 | 406 | 406
12 | KHTPINLVRDLPQGF | 18% | 821 | 1641 | – | – | –
13 | FTISVTTEI | – | – | – | 50 | 499 | 997
14 | KRTATKAYNVTQAFG | 31% | 188 | 752 | – | – | –
15 | TNFTISVTTEILPVS | 17% | 332 | 663 | – | – | –
16 | ATSRTLSYYKLGASQ | 15% | 693 | 1386 | – | – | –
17 | TLEILDITPCSFGGV | 8% | 227 | 227 | – | – | –
